Results of unrelated studies side by side (data: NIAID ChemDB).

Common to all: whole-cell or culture tests; organism: Aspergillus fumigatus; read-out: MIC

Rows are shuffled and stem from different studies. An empty or dashed field is not shown.

smiles	strain or isolate	value
CC(C)(C)c1c(C(c2ccccc2)n2ccnc2)cnn1-c1ccccc1		>200 µM
C[C@@H]1CCC2(OC1)OC1CC3C4C[C@H](O)[C@H]5C[C@@H](O)CC[C@]5(C)C4CC(=O)[C@]3(C)C1[C@@H]2C	ATCC 90906	20 µg/mL
Cc1ccc(CSc2cc(C(N)=S)ccn2)cc1	231	250 µM
CCCCCOc1ccc(-c2ccc(-c3ccc(C(=O)N[C@H]4C[C@@H](O)[C@@H](O)NC(=O)[C@@H]5[C@@H](O)[C@@H](C)CN5C(=O)[C@H]([C@H](C)O)NC(=O)[C@H]([C@H](O)[C@@H](O)c5ccc(O)cc5)NC(=O)[C@@H]5C[C@@H](O)CN5C(=O)[C@H]([C@H](C)O)NC4=O)cc3)cc2)cc1	10AF	>100 µg/mL
N#Cc1ccc(NC(=S)c2ccc(O)cc2O)cc1		>250 µg/mL
O=Cc1cc(-c2cccc(Cl)c2)no1	Clinical isolates	25 µg/mL
NC(=S)c1ccnc(SCc2ccc([N+](=O)[O-])cc2)c1	231	>500 µM
CCOC(=O)c1sc2cc(-c3ccc(F)cc3)oc(=O)c2c1N	AF-27	>100 µg/mL
CCCCCCCCCCCCC(C)(O)C1CC(=O)NC(CO)C(=O)N[C@H](C)C(=O)NC(CC(=O)O)C(=O)NC(CC(N)=O)C(=O)NC(CC(N)=O)C(=O)NC(CO)C(=O)NC([C@@H](C)O)C(=O)O1	TIMM0059	16 µg/mL
C[C@H]1[C@H](O)[C@@H](C)/C=C/C=C/C=C/C=C/C=C/C=C/C=C/[C@H](O[C@@H]2O[C@H](C)[C@@H](O)[C@H](N)[C@@H]2O)C[C@@H]2O[C@](O)(C[C@@H](O)C[C@@H](O)CC[C@H](O)[C@@H](O)C[C@@H](O)CC(=O)O[C@H]1C)C[C@H](O)[C@H]2C(=O)O	KM 8001	32 µg/mL
COc1ccc(/C=N\N(C)Cc2cccc3ccsc23)cc1		>64 µg/mL
CC1=CC[C@@H]2[C@H](C1)C2(C)C	F05	0.16 µg/mL
Oc1ccc(C(=S)Nc2cc(Cl)ccc2Cl)c(O)c1		31.25 µg/mL
COc1ccc(NS(=O)(=O)c2ccc(N)cc2)nn1	IFM 53412	≥256 µg/mL
Cc1ccc(-c2noc(C)c2C=O)cc1	Clinical isolates	50 µg/mL
Cc1ccc(C(C)C)c(O)c1	CECT2071	0.16 µg/mL
Cc1cc(NS(=O)(=O)c2ccc(N)cc2)no1	IFM 48051	64 µg/mL
CCC(C)CCCCCCC1CC(=O)NCC(=O)N[C@@H](CCCN)C(=O)N[C@@H](C(C)CC)C(=O)N1	TIMM0063	>80 µg/mL
C=C1C(=O)OCC1COC(=O)CCCC(C)C	IFO8866	25 µg/mL
C=C1CCN([C@H](C)[C@](O)(Cn2cncn2)c2ccc(F)cc2F)CC1	KA-01	0.2 µg/mL
NC(=S)c1ccnc(SCc2ccc(Br)cc2)c1	231	62.5 µM
O=Cc1cc(-c2ccc(Cl)cc2Cl)no1	Clinical isolates	50 µg/mL
C[C@H]1[C@H](O)[C@@H](C)/C=C/C=C/C=C/C=C/C=C/C=C/C=C/[C@H](O[C@@H]2O[C@H](C)[C@@H](O)[C@H](N)[C@@H]2O)C[C@@H]2O[C@](O)(C[C@@H](O)C[C@@H](O)CC[C@H](O)[C@@H](O)C[C@@H](O)CC(=O)O[C@H]1C)C[C@H](O)[C@H]2C(=O)O	MF5668	0.25 µg/mL
CN[C@@H]1[C@H](O[C@@H]2OC[C@@H](O)[C@H](O)[C@H]2O)[C@@H](O)[C@H](O[C@H]2c3cc(C)c(C(=O)N[C@H](C)C(=O)O)c(O)c3-c3c(cc4c(c3O)C(=O)c3cc(OC)cc(O)c3C4=O)[C@@H]2O)O[C@@H]1C	IAM2034	3.1 µg/mL
c1ccc(-c2c(C(c3ccccc3)n3ccnc3)cnn2-c2ccccc2)cc1		>200 µM
CCC(C)c1ccc(NC(=S)c2ccc(O)cc2O)cc1		125 µg/mL
O=C1c2c(O)ccc(O)c2C(=O)c2c(NCCNCCO)ccc(NCCNCCO)c21	NCPF 2010	>100 µM
CC1C=C(c2ccccc2)C(=O)O1	231	>125 µM
CSc1cc(-c2ccc(F)cc2)c(C(=O)O)s1	AF-27	>100 µg/mL
Cc1ccccc1/C=N\N(C)Cc1cccc2ccccc12		>64 µg/mL
C[C@@H](n1ccn(-c2ccc(OC(F)(F)F)cc2)c1=O)C(O)(Cn1cncn1)c1ccc(F)cc1F	437	4 µg/mL
CC1C=C(c2ccc(Br)c3ccccc23)C(=O)O1	231	>125 µM
CCOC(=O)c1sc(SC)cc1-c1ccc(Br)cc1	AF-27	>100 µg/mL
C[C@@H](N1CCN(c2ccc(OC(F)(F)C(F)F)cc2)C1=O)C(O)(Cn1cncn1)c1ccccc1F	TIMM1728	0.25 µg/mL
CC(N(C)C)C(O)(Cn1cncn1)c1ccc(F)cc1F	KA-01	50 µg/mL
O=C(N/N=C/c1cc([N+](=O)[O-])ccc1O)c1ccc(I)cc1	Strain #2	0.4 µg/mL
COc1cccc2c1C(=O)c1c(O)c3c(c(O)c1C2=O)C[C@@](O)(C(=O)CO)C[C@@H]3O[C@H]1C[C@H](N)[C@@H](O)[C@H](C)O1	NCPF 2010	>100 µM
C[C@@H](n1ccn(-c2ccc(OC(F)(F)C(F)F)cc2)c1=O)C(O)(Cn1cncn1)c1ccccc1F	437	2 µg/mL
CC1C=C(c2cccc(F)c2)C(=O)O1	231	>125 µM
CC[C@@]1(O)C(=O)OCc2c1cc1n(c2=O)Cc2cc3c(CN(C)C)c(O)ccc3nc2-1	NCPF 2010	>100 µM
Cc1onc(-c2ccc(Cl)cc2)c1C=O	Clinical isolates	25 µg/mL
Oc1ccc(C(=S)Nc2cccc(C(F)(F)F)c2)c(O)c1		62.5 µg/mL
Cc1c(C(c2ccccc2)n2cncn2)cnn1-c1ccccc1		>200 µM
CC1C=C(c2ccc(F)c(F)c2)C(=O)O1	231	62.5 µM
COc1ccccc1NC(=S)c1ccc(O)cc1O		125 µg/mL
CN(Cc1cccc2ccccc12)/N=C\c1ccc(C(C)(C)C)cc1		>64 µg/mL
c1ccc(C(c2cnn(-c3ccccc3)c2)n2ccnc2)cc1		>200 µM
Cc1noc(NS(=O)(=O)c2ccc(N)cc2)c1C	IFM 48051	128 µg/mL
C[C@@H](N1CCN(c2ccc(-n3cnnn3)cc2)C1=O)[C@](O)(Cn1cncn1)c1ccc(F)cc1F	437	>64 µg/mL
CC(C)c1c(C(c2ccccc2)n2cncn2)cnn1-c1ccccc1		>200 µM
NC(=S)c1ccnc(SCc2ccc(F)cc2)c1	231	125 µM
Oc1ccc(C(=S)Nc2ccc(Cl)c(Cl)c2)c(O)c1		31.25 µg/mL
CC1C=C(c2cc3ccccc3n2C)C(=O)O1	231	>125 µM
C[C@@H](N1CCN(c2ccc(F)cc2)C1=O)C(O)(Cn1cncn1)c1ccc(F)cc1F	TIMM1728	4 µg/mL
CC(N1CCN(c2ccc(-n3cnnn3)cc2)C1=O)[C@@](O)(Cn1cncn1)c1ccc(F)cc1F	437	>64 µg/mL
CN(Cc1cccc2ccsc12)/N=C\c1ccc(C(C)(C)c2ccccc2)cc1		>64 µg/mL
CCOC(=O)c1sc(SC)c(C(=O)OC)c1O	AF-27	25 µg/mL
CC1C=C(C23CC4CC(CC(C4)C2)C3)C(=O)O1	231	>125 µM
Cc1nnc(NS(=O)(=O)c2ccc(N)cc2)s1	IFM 53412	≥256 µg/mL
C[C@@H](N1CCN(c2ccc(OC(F)(F)F)cc2)C1=O)C(O)(Cn1cncn1)c1ccc(F)cc1F	437	1 µg/mL
O=Cc1cc(-c2ccccc2Cl)on1	Clinical isolates	>50 µg/mL
Oc1ccc(C(=S)Nc2cccc(Cl)c2Cl)c(O)c1		31.25 µg/mL
CC1C=C(c2cccc(Br)c2)C(=O)O1	231	>125 µM
C[C@@H](n1ccn(-c2ccc(OCC(F)(F)C(F)F)cc2)c1=O)C(O)(Cn1cncn1)c1ccc(F)cc1F	TIMM1728	2 µg/mL
CCOC(=O)c1sc(SC)cc1-c1ccccc1	AF-27	>100 µg/mL

A second listing of 5 rows from above:

smiles | strain or isolate | value
NC(=S)c1ccnc(SCc2ccc(F)cc2)c1 | 231 | 125 µM
O=Cc1cc(-c2ccccc2Cl)on1 | Clinical isolates | >50 µg/mL
CC1=CC[C@@H]2[C@H](C1)C2(C)C | F05 | 0.16 µg/mL
C=C1C(=O)OCC1COC(=O)CCCC(C)C | IFO8866 | 25 µg/mL
CC(N1CCN(c2ccc(-n3cnnn3)cc2)C1=O)[C@@](O)(Cn1cncn1)c1ccc(F)cc1F | 437 | >64 µg/mL